# Data as given in patent US20040214900A1, “Method of treating strongyloides infections and medicaments therefor” (priority 2003, published 2004).
# What was measured:
# [1] = tested on: Strongyloides stercoralis infective larvae; test: Immobilisation of S. stercoralis infective larvae incubated in 0.6% AI suspensions; format: cell-based
# Method: (§1) Coproculture of about 30 g of fresh, moistened canine faeces was conducted using granular charcoal (1:1 v:v) in sealed 10 cm diameter Petri dishes. Cultures were maintained at 26° C. under semi-lighted conditions. S. stercoralis filariform larvae typically migrated to the surface of the culture and eventually into water droplets that condensed on the inner surface of the lid. Larvae appearing within 2 days were mostly those accruing from the homogonic cycle and usually occurred in insufficient numbers for bioassay. After five to eight days had elapsed free-living adult worms had effected a 50-fold increase in the population density (heterogonic cycle).
# The effectiveness of the tested compounds was evaluated by incubating larvae obtained as in Example 1 in suspensions containing 0.6% of Compound (1) as the active ingredient (AI). Incubation times were 1, 2, 3, 4, 5, 6, 24, 48, 72, and 96 hours. Three (3) replicates were run in each assay, using >>100 larvae per replicate.
# The anthelmintic effectiveness of Compound (1) and of three commercial anthelmintics, namely albendazole, thiabendazole, and ivermectin, was evaluated, and the results are summarized in Table 1. Compound (1) immobilized 100% of the larvae within one hour's exposure. This was also true for ivermectin. However, similar concentrations of albendazole and thiabendazole immobilized 50% of the infective larvae only after 73.7 and 78.9 hours, respectively.
# [2] = tested on: Strongyloides stercoralis infective larvae; format: cell-based; conditions: 0.6% AI
# Method: as §1
# The lethality of the tested compounds was evaluated by incubating larvae obtained as in Example 1 in suspensions containing 0.6% of Compound (1) as the active ingredient (AI).
# The mortality of the larvae was assessed by a dye exclusion test such as have been used successfully to indicate viability in parasitic platyhelminths. (See Halton & Arme (1971) Exp. Parasit. 30:54; Robinson & Arme (1985) Ann. Trop. Med. & Parasit. 79:17.) Similar testing was applied to S. stercoralis larvae. In these tests, use of
# 0.01% v/v eosin in LNSS (ELNSS) in an eosin-exclusion test indicated death of larvae in less than 10 minutes and had no effect on healthy individuals.
Compound,"Regression equation (Y = a + bx), a (immobilisation) [1]","Regression equation (Y = a + bx), b (immobilisation) [1]","Regression equation (Y = a + bx), a (mortality) [2]","Regression equation (Y = a + bx), b (mortality) [2]"
"CCCSc1ccc2nc(NC(=O)OC)[nH]c2c1 [Albendazole, albendazole]",−5.09,2.74,,
c1ccc2[nH]c(-c3cscn3)nc2c1 [Thiabendazole],−12.02,6.27,,
ivermectin,,,−7.35,2.94
